Compound potency records, mixed from different reports. Data source: NIAID ChemDB in PubChem.

Common to all: whole-cell or culture tests; agent: HIV-2; cells: MT-4; read-out: EC50

ECn is the concentration giving n% inhibition of infection, replication or growth. Lines come from different laboratories, so protocols vary.

SMILES | strain | method | result
COc1ccc(S(=O)(=O)NC(c2nnc(Nc3ccc(F)cc3)s2)C(C)C)cc1 | ROD | MTT | >9.34 µM
CC(C)[C@H](NC(=O)OCc1ccccc1)C(=O)N[C@@H](Cc1ccccc1)[C@@H](O)[C@@H](NCc1ccccc1)C(=O)N[C@H](C(=O)NCc1ccccc1)C(C)C | ROD | p24 | >3 µM
CCOC(=O)c1c(C)n([C@H]2C[C@@H]2c2ccccc2)c2ccc(OC(C)=O)c(O)c12 | ROD | MTT | 11.09 µM
Cc1ccc(S(=O)(=O)NC(c2nnc(Nc3ccc(F)cc3)s2)C(C)C)cc1 | ROD | MTT | >9.5 µM
COc1ccc(S(=O)(=O)Nc2ccc(-c3nnc(-c4ccc(C)cc4)o3)cc2)cc1 | ROD | cytopathic effect | >103 µg/mL
Nc1ncnc2c1ncn2C[C@H](CO)OCP(=O)(O)O | LAV-2 | cytopathic effect | >330 µM
CC(C)[C@H](NC(=O)OCc1ccccc1)C(=O)N[C@@H](Cc1ccccc1)[C@@H](O)[C@@H](NCc1ccc(Br)cc1)C(=O)N[C@H](C(=O)NCc1nc2ccccc2[nH]1)C(C)C | ROD | p24 | 1.2 µM
C[C@H](C[n+]1c[nH]c2c(Nc3ccccc3)nc(N)nc21)OCP(=O)(O)O | ROD | cytopathic effect / MTT | 8 ± 2.9 µg/mL
CC(C)C(NS(=O)(=O)c1ccc(Br)cc1)c1nnc(Nc2ccc(Br)cc2)s1 | ROD | MTT | >2.31 µM
Nc1nc2c(ncn2C[C@@H](CF)OCP(=O)(O)O)c(=O)[nH]1 | LAV-2 | cytopathic effect | 3.8 µM
CCCN(C)c1nc(C(C)c2c(F)cccc2F)c(C)c(=O)[nH]1 | ROD | MTT | 8.6 µM
COc1cc2c(cc1Cc1c(F)cccc1Cl)nc(-c1c(F)cccc1Cl)n2Cc1c(F)cccc1Cl | ROD | RT activity | >127 µM
COc1cc([C@@H]2Oc3cc([C@H]4Oc5cc(O)cc(O)c5C(=O)[C@@H]4O)ccc3O[C@H]2COP(=O)(O)OC[C@H]2O[C@@H](O[C@H]3[C@H](O)[C@@H](O)[C@@H](OC)O[C@@H]3CO)[C@H](O)[C@@H](O)[C@H]2O)ccc1O | ROD | MTT | >130 µM
CC(NS(=O)(=O)c1ccc(Cl)cc1)c1nnc(Nc2ccc(F)cc2)s1 | ROD | MTT | >6.85 µM
C[C@@H](NS(=O)(=O)c1ccc(Cl)cc1)C(=O)NN | ROD | cytopathic effect | >125 µg/mL
Nc1nc(N2CCCC2)c2ncn(CCOCP(=O)(O)O)c2n1 | ROD | cytopathic effect / MTT | 2 µg/mL
COc1cc([C@@H]2Oc3cc([C@H]4Oc5cc(O)cc(O)c5C(=O)[C@@H]4O)ccc3O[C@H]2COP(=O)(O)OC[C@H]2O[C@H](O[C@H]3O[C@H](CO)[C@@H](O)[C@H](O)[C@H]3O)[C@H](O)[C@@H](O)[C@@H]2O)ccc1O | ROD | MTT | >140 µM
O=C(O)c1ccc2nc(-c3c(F)cccc3F)n(Cc3c(F)cccc3F)c2c1 | ROD | RT activity | >117 µM
CC(C)(C)[Si](C)(C)OC[C@H]1O[C@@H](n2ccc(=O)[nH]c2=O)[C@H](O[Si](C)(C)C(C)(C)C)[C@@]12O[C@H]2C(=O)NN | ROD | cytopathic effect / trypan blue | >2 µM
CC(C)[C@H](NC(=O)CCc1nc2ccccc2[nH]1)C(=O)N[C@@H](Cc1ccccc1)[C@@H](O)[C@@H](NCc1ccccc1)C(=O)N[C@H](C(=O)NCc1ccccc1)C(C)C | ROD | p24 | 0.665 µM
O=S(=O)(NCCCc1n[nH]c(=S)o1)c1ccc(Cl)cc1 | ROD | cytopathic effect | >74 µg/mL
C[C@H](Cn1cnc2c(N(C)C)ncnc21)OCP(=O)(O)O | ROD | cytopathic effect / MTT | 0.4 ± 0.05 µg/mL
COC(=O)[C@@H]1O[C@]12[C@@H](CO[Si](C)(C)C(C)(C)C)O[C@@H](n1ccc(=O)[nH]c1=O)[C@@H]2O[Si](C)(C)C(C)(C)C | ROD | cytopathic effect / trypan blue | >10 µM
COc1ccc(S(=O)(=O)NCCCc2n[nH]c(=S)o2)cc1 | ROD | cytopathic effect | >125 µg/mL
COc1cc([C@@H]2Oc3cc([C@H]4Oc5cc(O)cc(O)c5C(=O)[C@@H]4O)ccc3O[C@H]2CO)ccc1O | ROD | MTT | >36 µM
COc1cc2nc(-c3c(F)cccc3F)n(Cc3c(F)cccc3F)c2cc1Cc1c(F)cccc1F | ROD | RT activity | >31.35 µM
COC(O)[C@@H]1OC12[C@@H](CO[Si](C)(C)C(C)(C)C)O[C@@H](n1cc(C)c(=O)[nH]c1=O)[C@@H]2O[Si](C)(C)C(C)(C)C | ROD | cytopathic effect / trypan blue | >10 µM
Nc1nc2c(ncn2C[C@H](CO)OCP(=O)(O)O)c(=O)[nH]1 | LAV-2 | cytopathic effect | >12.5 µM
CC(C)[C@H](NC(=O)[C@H](NCc1ccc(Cl)cc1)[C@H](O)[C@H](Cc1ccccc1)NC(=O)[C@@H](NC(=O)OCc1ccccc1)C(C)(C)C)C(=O)NCc1nc2ccccc2[nH]1 | EHO | p24 | 0.263 µM
Cc1ccc(S(=O)(=O)NC(C)c2nnc(Nc3ccc(Br)cc3)s2)cc1 | ROD | MTT | >8.09 µM
Cc1cn([C@@H]2O[C@H](CO[Si](C)(C)C(C)(C)C)C3(O[C@H]3C(=O)NN)[C@H]2O[Si](C)(C)C(C)(C)C)c(=O)[nH]c1=O | ROD | cytopathic effect / trypan blue | >10 µM
COc1ccc(-c2nnc(-c3ccc(N)cc3)o2)cc1 | ROD | cytopathic effect | >116 µg/mL

The first 2 rows once more:

SMILES | strain | method | result
COc1ccc(S(=O)(=O)NC(c2nnc(Nc3ccc(F)cc3)s2)C(C)C)cc1 | ROD | MTT | >9.34 µM
CC(C)[C@H](NC(=O)OCc1ccccc1)C(=O)N[C@@H](Cc1ccccc1)[C@@H](O)[C@@H](NCc1ccccc1)C(=O)N[C@H](C(=O)NCc1ccccc1)C(C)C | ROD | p24 | >3 µM